Measurements from patent publication EP4345092A1, “NITROBENZAMIDE COMPOUNDS, METHODS AND USES THEREOF” (Faculdade de Farmácia da Universidade de Lisboa, priority 2022, dated 2024).

Legend:
[1] = tested on: Mycobacterium tuberculosis H37Rv (ATCC 27294); assay: Minimum Inhibitory Concentration (MIC), broth microdilution in 96-well plates; assay type: cell-based; conditions: M. tuberculosis H37Rv, 10th day of incubation
[2] = tested on: Mycobacterium tuberculosis H37Rv (ATCC 27294); conditions: M. tuberculosis H37Rv; plated on 7H10 + OADC; 3 weeks of incubation; no colonies
[3] = concentration with no visible turbidity

Row | SMILES | MIC [1, 3] | MIC ([1]; same MIC expressed in nM) | MBC [2]
1 | O=C(NCCCCCOC(=O)c1cc([N+](=O)[O-])cc([N+](=O)[O-])c1)c1cc([N+](=O)[O-])cc([N+](=O)[O-])c1 | 0.063 µg/mL | 128.21 nM | 0.5 µg/mL
2 | O=C(NCCOC(=O)c1cc([N+](=O)[O-])cc([N+](=O)[O-])c1)c1cc([N+](=O)[O-])cc([N+](=O)[O-])c1 | >16 µg/mL | >35600 nM | 
3 | O=C(NCCCCCNC(=O)c1cc([N+](=O)[O-])cc([N+](=O)[O-])c1)c1cc([N+](=O)[O-])cc([N+](=O)[O-])c1 | 0.25 µg/mL | 509.80 nM | 
